Assay results: the supplement of paper PMC9931576
Human monoclonal antibodies against the spike receptor-binding domain (heavy:light variable regions). IC50 against pseudoviruses bearing the spike of naturally observed variants; lower = stronger; >10 µg/ml means not reached at the top dose. No active / inactive call. The stated detection limit is 0.0005 µg/ml; values near or below 0.001 µg/ml lie at the floor of the assay.

B1: BD56-826 (protein)
chain 1: QVQLQESGPGLVKPSQTLSLTCTVSGGSISSGDYYWSWIRQPPGKGLEWIGSIYYSGTTYYNPSLKSRVTISVDTSKNQFSLKLSSVTAADTAVYYCAGGGLEYFQHWGQGPLVTVSS
chain 2: AIQLTQSPSSLSASVGDRVTISCRASQGLSSVLNWYQQKPGKAPKLLIYDASSLESGVPSRFSGSGSGTDFTLTISSLQPEDFATYYCQQFNSYLLTFGPGTKVDIK
B2: BD56-268 (protein)
chain 1: QVTLRESGPALVKPTQTLTLTCTFSGFSLNTSGMCVSWIRQPPGKALEWLALIDWDDDKYYSTSLKTRLTISKDTSKNQVVLTMTNMDPVDTATYYCTRMVGELTDYAFDIWGQGTMVTVSS
chain 2: SYELTQPPSVSVSPGQTARITCSGDALPMQYAYWYQQKPGQAPVLVIYKDSERPSGIPERFSGSSSGTTVTLTISGVQAEDEADYYCQSADSSGTPVVFGGGTKLTVL
B3: BD56-871 (protein)
chain 1: QVTLRESGPALVKPTQTLTLTCTFSGFSLSTSGMCVSWIRQPPGKALEWLALIDWDDDKYYSTSLKTRLTISKDTSKSQVVLTMTNMDPVDTATYYCARTHSDYYYYGMDVWGQGTTVTVSS
chain 2: SYELTQPPSVSVSPGQTARITCSADALPIQYAYWYQQKPGQAPVLVIYKDSERPSGIPERFSGSSSGTTVTLTISGVQAEDEADYYCQSADSSASYQVFGGGTKLTVL
B4: BD56-850 (protein)
chain 1: QVQLVQSGAEVKKPGSSVKVSCKASGGTFSSYAISWVRQAPGQGLEWMGGIIPIFGTANYAQKFQGRVTITADESTSTADMELSSLRSEDTAVYYCATTPQLYFGSGGGYYFDYWGQGTLVTVSS
chain 2: DIQMTQSPSSLSASVGDRVTITCQASQDISNYLNWYQQKPGKAPKLLIYDASNLETGVPSRFSGSGFGTDFTFTITSLQPEDFATYYCQHYDVFGQGTKLEIK
B5: BD56-831 (protein)
chain 1: QVQLVESGGGLVKPGGSLRLSCAASGFTFSDYYMSWIRQAPGKGLEWVSYISTSGSTIYYADSVKGRFTVSRDNAKNSLYLQMNSLRAEDTAVYYCARELGGEPPAHWGQGTLVTVSS
chain 2: QPVLTQPPSASASLGASVTLTCTLSSGYSNYIVDWHQQRPGKGPRFVMRVGTGGIVGSKGDGIPDRFSVLGSGLNRYLTIKNIQEEDESDYHCGADHGSGSNFVYVFGTGTKVTVL
B6: BD56-825 (protein)
chain 1: QVQLQESGPGLVKPSQTLSLTCTVSGGSISSGGFYWSWIRQHPGKGLEWIGHISYSGNTYYNPSLKSRVTISADTSKNQFSLKLSSVTAADTAVYYCARDLTGWFDPWGQGTLVTVSS
chain 2: EIVLTQSPGTLSLSPGERATLSCRASQSVSSFYLAWYQQKPGQAPRLLIYGASSRATGIPDRFRGSGSGTDFTLTISRLEPEDFAVYYCQQYGSSYTFGQGTKLEIK
B7: BD56-836 (protein)
chain 1: QVQLQESGPGLVKPSETLSLTCTVSGGSISSYYWSWIRQPPGKGLEWIGYIYYSGSTNYNPSLKSRVTISVDTSKNQFSLKLSSVTAADTAVYYCASTPEYSSSYYFDYWGQGTLVTVSS
chain 2: SYELTQPPSVSVSPGQTARITCSADALPQQYAYWYQQKPGQAPVVVIYKDTERPSGIPERFSGSSSGTTVTLTISGVQAEDEADYYCQSADSSGTYPVVFGGGTKLTVL
B8: BD56-852 (protein)
chain 1: QVQLVESGGGLVKPGGSLRLSCAASGFTFSDYYMSWIRQAPGKGLEWVSYISSSGSTIYYADSVKGRFTISRDNAKNSLYLQMNSLRAEDTAVYYCAGCASYSSSWYANYWGQGTLVTVSS
chain 2: SYELTQPPSVSVSPGQTARITCSGDALPTQYAYWYQQRPGQAPVLVIYKDTERPSGIPERFSGSSSGTTVTLTISGVQAEDEADYYCQSADSSGPYPGVFGGGTKLTVL
B9: BD56-841 (protein)
chain 1: QVQLVQSGAEVKKPGASVRVSCKTSGYTFTNYGISWVRQAPGQGLEWMGWISAYNGDTNYAQELQDRVTMTTDTSTSTAYMELRSLRSDDTAVYYCAREIVLVSSMWPEPVYWGQGTLVTVSS
chain 2: NFMLTQPHSVSESPGKTVTISCTRSSGSIASNFVQWYQQRPGSAPTTVICEDNQRPSGVPDRFSGSIDRSSNSASLTISGLKTEDEADYYCQSYDSSNHVVFGGGTKLTVL
B10: BD56-823 (protein)
chain 1: QVQLQESGPGLVKPSGTLSLTCAVSGGSISSSNWWSWVRQPPGKGLEWIGEIYHSGSTNYNPSLKSRVTISVDKSKNQFSLKLSSVTAADTALYYCARDRFGDLDYPHYYYAMDVWGQGTTVTVSS
chain 2: DIQMTQSPSSLSASVGDRVTITCRASQGISNSLAWYQQKPGKAPKLLLYTASTLESGVPSRFSGSGSGTDYTLTISSLQPEDFATYYCQQFYSTPRTFGQGTKVEIK

Each binder was assayed against SARS-CoV-2 Omicron BA.1 spike pseudovirus (assay: pseudovirus neutralization IC50; higher = weaker neutralization).
Experimental: (§1)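 Single-round VSV luciferase pseudovirus mixed with antibody dilutions for 1 h and put on Huh-7 cells for about a day; IC50 from the dose curve.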

Binder | pseudovirus neutralization IC50 [µg/mL]
B1 | 0.00268
B2 | 0.026
B3 | 0.808
B4 | 0.00887
B5 | 0.0059
B6 | 0.00221
B7 | 0.422
B8 | 0.0649
B9 | 0.0119
B10 | 0.0117

What follows are binders tested against SARS-CoV-2 Omicron BA.2 spike pseudovirus in the same assay as above.
Experimental: as §1

Binder | pseudovirus neutralization IC50 [µg/mL]
B1 | > 10
B2 | 0.046
B3 | > 10
B4 | 0.0307
B5 | 0.00428
B6 | 0.00361
B7 | > 10
B8 | 0.191
B9 | 0.0489
B10 | 0.0149

These binders were tested against SARS-CoV-2 Omicron BA.2.75 spike pseudovirus in the same assay as above.
Experimental: as §1

Binder | pseudovirus neutralization IC50 [µg/mL]
B1 | > 10
B2 | 0.0449
B3 | > 10
B4 | 0.594
B5 | 0.0623
B6 | > 10
B7 | > 10
B8 | 0.387
B9 | > 10
B10 | > 10

These binders were tested against SARS-CoV-2 Omicron BA.2.75.2 spike pseudovirus in the same assay as above.
Experimental: as §1

Binder | pseudovirus neutralization IC50 [µg/mL]
B1 | > 10
B2 | 0.0435
B3 | > 10
B4 | 0.326
B5 | > 10
B6 | > 10
B7 | > 10
B8 | 0.371
B9 | > 10
B10 | > 10

What follows are binders tested against SARS-CoV-2 Omicron BA.5 spike pseudovirus in the same assay as above.
Experimental: as §1

Binder | pseudovirus neutralization IC50 [µg/mL]
B1 | > 10
B2 | 0.041
B3 | > 10
B4 | 0.148
B5 | > 10
B6 | > 10
B7 | > 10
B8 | 0.345
B9 | > 10
B10 | > 10

Each binder was assayed against SARS-CoV-2 Omicron BM.1.1.1 spike pseudovirus in the same assay as above.
Experimental: as §1

Binder | pseudovirus neutralization IC50 [µg/mL]
B1 | > 10
B2 | 0.0566
B3 | > 10
B4 | 0.277
B5 | > 10
B6 | > 10
B7 | > 10
B8 | 0.208
B9 | > 10
B10 | > 10

These binders were tested against SARS-CoV-2 Omicron BQ.1.1 spike pseudovirus in the same assay as above.
Experimental: as §1

Binder | pseudovirus neutralization IC50 [µg/mL]
B1 | > 10
B2 | > 10
B3 | > 10
B4 | 5.19
B5 | > 10
B6 | > 10
B7 | > 10
B8 | > 10
B9 | > 10
B10 | > 10

What follows are binders tested against SARS-CoV-2 Omicron BR.2 spike pseudovirus in the same assay as above.
Experimental: as §1

Binder | pseudovirus neutralization IC50 [µg/mL]
B1 | > 10
B2 | 0.0522
B3 | > 10
B4 | 0.19
B5 | > 10
B6 | > 10
B7 | > 10
B8 | 0.275
B9 | > 10
B10 | > 10

These binders were tested against SARS-CoV-2 Omicron CA.1 spike pseudovirus in the same assay as above.
Experimental: as §1

Binder | pseudovirus neutralization IC50 [µg/mL]
B1 | > 10
B2 | 0.0496
B3 | > 10
B4 | 0.204
B5 | > 10
B6 | > 10
B7 | > 10
B8 | 0.635
B9 | > 10
B10 | > 10

These binders were tested against SARS-CoV-2 Omicron XBB spike pseudovirus in the same assay as above.
Experimental: as §1

Binder | pseudovirus neutralization IC50 [µg/mL]
B1 | > 10
B2 | 0.965
B3 | > 10
B4 | 0.269
B5 | > 10
B6 | > 10
B7 | > 10
B8 | > 10
B9 | > 10
B10 | > 10

Each binder was assayed against SARS-CoV-2 early D614G spike pseudovirus in the same assay as above.
Experimental: as §1

Binder | pseudovirus neutralization IC50 [µg/mL]
B1 | > 10
B2 | > 10
B3 | > 10
B4 | > 10
B5 | > 10
B6 | > 10
B7 | > 10
B8 | > 10
B9 | > 10
B10 | > 10
